# Reference: patent US9464255B2, “Maleinized ester derivatives” (Elevance Renewable Sciences, Inc., priority 2013, dated 2016)
# System: activated sludge (microbial inoculum)
# Assay: Aerobic biodegradability in water containing mineral salts and activated sludge (CO2 evolution, DOC)
# Details: for mean % ThCO2: corrected for background CO2 from the controls
# Method: A maleinized ester derivative in the form of hydrogenated 1-pentyl triester of maleinated-9-dodecene methyl ester (hereinafter the “test substance”) is evaluated for aerobic biodegradability in water containing mineral salts and activated sludge. The activated sludge is taken from a wastewater treatment plant and is used as a source of microbial inoculum. The objectives of the study are: 1) to evaluate the biodegradability (mineralization to CO2 production) potential of the test substance in an aerobic, aqueous medium; and 2) to determine the mineralization potential of a reference chemical in order to assess the viability of the test inoculum.
# Approximately one liter of activated sludge is used as the microbial inoculum. The sludge is collected from the Columbia Wastewater Plant in Columbia, Miss. This plant treats predominately domestic sewage.
# An aqueous mineral salts medium provides essential mineral nutrients and trace elements necessary to sustain the inoculum throughout the test period. The mineral salts medium is prepared by addition of reagent grade salts to reagent water. The mineral salts include salts of K, Na, NHa, Ca, Mg and Fe. The pH of the mineral salts medium is 7.27.
# Each test system consists of a 5-L Pyrex carboy (reaction flask or vessel) containing a 3.0 L test solution volume comprised of mineral salts medium, prepared microbial inoculum, reagent water, and the appropriate test and/or reference substance additions. Outside air is passed through a pre-trap containing 500 mL of approximately 5 N KOH. The air is then passed through approximately 500 mL of reagent water to humidify the air, as well as to prevent contamination of the flasks from the KOH pre-trap. The CO2-free and humidified air is then passed through the reaction flasks.
# The CO2-free air is introduced into each flask by positive pressure, and the flow rates (50-100 mL/minute) are measured and adjusted using flow meters. The outlet from each flask is connected to three CO2 absorber gas-washing traps in series, each filled with 100 mL of 0.2 N KOH solution. These traps capture the CO2 evolved from the reaction flasks. A magnetic stir bar is placed in each flask. The flasks are placed on insulated magnetic stir plates and stirred throughout the duration of the study. The test systems are kept in the dark (except for sampling and maintenance) in a temperature-controlled environmental chamber set at 22° C. Temperature of the chamber is continuously measured using a Rees Scientific temperature monitoring system.
# The activated sludge is homogenized in a blender at a medium speed for two minutes. The homogenized sludge is allowed to settle for 30 to 60 minutes then filtered through glass wool. A volume of 30 mL of the filtrate is used as the inoculum for each reaction flask.
# One day prior to dosing, six test systems are assembled. Each 5-L carboy receives 2,400 mL of mineral salts medium and 30 mL of the prepared activated sludge. Stirring and aeration with CO2-free air at approximately 90 mL/minute is started for each flask. The flasks are allowed to aerate overnight to purge the systems of CO2 before initiation of the test (dosing on Day 0).
# Duplicate test substance systems are prepared by adding 570 mL of reagent water and approximately 42.2 mg (dosed gravimetrically) of the test substance to two of the 5-L carboys. The nominal concentration of carbon from the test substance in the final volume of 3,000 mL of solution is 10 mg C/L.
# The reference substance system is prepared by adding 467 mL of reagent water and 103 mL of the 1.00-mg/mL reference substance stock solution to a 5-L carboy. The nominal concentration of carbon from the reference substance in the final volume of 3,000 mL of solution is 20 mg C/L.
# The nominal concentration of carbon from the toxicity system in the final volume of 3,000 mL of solution is 30 mg C/L.
# After all additions, each of the reaction flasks are connected to a series of three traps containing 100 mL of 0.2 N KOH. […]
substance,measurement,setting,value
hydrogenated 1-pentyl triester of maleinated-9-dodecene methyl ester [test substance],biodegradability classification,>60% ThCO2 within a 10-day window,readily biodegradable
same,mean % ThCO2,"Day 9, mean of replicates",15.8%
same,mean % ThCO2,"Day 19, mean of replicates",71.6%
same,% ThCO2,"Day 19, replicate A",63.8%
same,% ThCO2,"Day 19, replicate B",79.4%
same,corrected DOC concentration at termination,Day 28,3.35 mg C/L
